PubChem BioAssay AID624099, ICCB-Longwood – 2012
Test: 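Human genes that papillomavirus E2 requires to repress the HPV18 LCR promoter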 (primary screen). Cell system: human C33A cervical carcinoma cells (HPV-negative) stably expressing BPV1 E2 and an HPV18 LCR luciferase reporter. Knock-down reagent: siRNA pool against human genes, 40 nM. Duration: 72 h. Detection: 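HPV18 LCR reporter light per well, converted to plate-wise z-scores that exclude control wells, and averaged over triplicate plates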. Direction: mean z-score and z-score: higher = stronger reporter signal, weaker E2 silencing. Rule for the call: 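Hit if mean z-score reaches 2 and two or more of three replicate z-scores also reach 2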.
This is one part, drawn at random, of about 21,000 reagents tested. 497 of them (2.4%) were called active. 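Higher z means weaker E2 silencing; only reporter increases were scored, and knock-downs that hurt cell survival may mask genuine repressor factors.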 Unmarked entries are inactive.

no.	target gene	mean z-score	z-score, replicate A	z-score, replicate B	z-score, replicate C
1	CAMKK1	-0.64	-0.55	-0.86	-0.5
2	YTHDF2	-0.71	-0.33	-0.91	-0.9
3	KCNN1	0.85	0.82	0.85	0.87
4	RBM12	0.55	0.82	0.26	0.57
5	LOC401182 (retired record)	-0.18	0.02	-0.21	-0.34
6	LOC100128988	-0.84	-0.62	-1.17	-0.75
7	CCDC51	2.01 (active)	2.01	2.07	1.96
8	TNS4	1.84	1.69	1.64	2.2
9	ALDH8A1	0.62	0.96	0.36	0.53
10	DIP2A	-1.07	-1.04	-1.14	-1.04
11	CDC27	-0.55	-0.51	-0.51	-0.64
12	GTF3C6	1.07	0.75	1.4	1.06
13	DHX8	0.03	-0.04	-0.12	0.25
14	TEC	0.01	-0.1	-0.29	0.44
15	PEX14	2.14 (active)	2.27	2.17	1.97
16	LINC01999	0.73	0.97	0.42	0.79
17	NPY5R	0.67	0.71	0.69	0.61
18	RAB42	1.63	2.06	1.42	1.42
19	CCND1	0.85	0.81	0.7	1.05
20	GAL3ST2	-0.19	-0.44	-0.22	0.07
21	TBC1D25	0.02	0.16	-0.17	0.08
22	MMP20	0.87	0.6	0.74	1.28
23	ZNF324B	0.15	-0.07	0.54	-0.02
24	CNBD2	-0.94	-1.01	-1.52	-0.28
25	ATP6V1D	1.28	1.12	1.25	1.47
26	AASS	1.62	1.81	1.62	1.42
27	RMP24	0.19	0.11	0.29	0.18
28	LCE1C	1.19	0.97	1.2	1.38
29	ABO	0.02	0.28	0.09	-0.32
30	MGAT2	-1.14	-1.14	-1.43	-0.85
31	LSM8	-0.22	0.01	-0.36	-0.31
32	MCM3	0.35	0.1	0.3	0.66
33	OTULIN	-0.13	0.41	-0.41	-0.4
34	FAXC	0.69	0.59	0.8	0.67
35	SNAI1	-0.89	-1.45	-0.61	-0.61
36	PMS2P2	2.68 (active)	2.8	2.65	2.58
37	LCN1P1	0.44	0.87	0.71	-0.26
38	GPBAR1	0.45	0.28	0.6	0.48
39	LOC388763 (retired record)	-0.76	-0.36	-1.1	-0.81

Active calls (from the list above):
target gene	mean z-score	z-score, replicate A	z-score, replicate B	z-score, replicate C
CCDC51	2.01 (active)	2.01	2.07	1.96
PEX14	2.14 (active)	2.27	2.17	1.97
PMS2P2	2.68 (active)	2.8	2.65	2.58
